The subject of one test is native HEK293T cells. It is filed as cell-based. Conditions: negative for TRPV1, 20 °C, endogenous ASICs.
The next test concerns DRG neurons of WT mice. It is filed as cell-based, mouse. The conditions noted are these: 300 µM; DRG neurons 20 µm ≤ cell ≤ 35 µm; 20 °C.
Test [1] deals with DRG neurons of TRPV1 KO mice. It is filed as cell-based, mouse. The conditions noted are these: 300 µM; DRG neurons 20 µm ≤ cell ≤ 35 µm; 20 °C.
The target of another test is T1, mTRPV1 (Mus musculus, UniProt Q704Y3).
T1 construct: expressed in transfected cells; host or cells: HEK293T
In words: cell-based.

Amino acid sequences for entries named in this document (tags omitted).
UniProt Q704Y3, whole entry: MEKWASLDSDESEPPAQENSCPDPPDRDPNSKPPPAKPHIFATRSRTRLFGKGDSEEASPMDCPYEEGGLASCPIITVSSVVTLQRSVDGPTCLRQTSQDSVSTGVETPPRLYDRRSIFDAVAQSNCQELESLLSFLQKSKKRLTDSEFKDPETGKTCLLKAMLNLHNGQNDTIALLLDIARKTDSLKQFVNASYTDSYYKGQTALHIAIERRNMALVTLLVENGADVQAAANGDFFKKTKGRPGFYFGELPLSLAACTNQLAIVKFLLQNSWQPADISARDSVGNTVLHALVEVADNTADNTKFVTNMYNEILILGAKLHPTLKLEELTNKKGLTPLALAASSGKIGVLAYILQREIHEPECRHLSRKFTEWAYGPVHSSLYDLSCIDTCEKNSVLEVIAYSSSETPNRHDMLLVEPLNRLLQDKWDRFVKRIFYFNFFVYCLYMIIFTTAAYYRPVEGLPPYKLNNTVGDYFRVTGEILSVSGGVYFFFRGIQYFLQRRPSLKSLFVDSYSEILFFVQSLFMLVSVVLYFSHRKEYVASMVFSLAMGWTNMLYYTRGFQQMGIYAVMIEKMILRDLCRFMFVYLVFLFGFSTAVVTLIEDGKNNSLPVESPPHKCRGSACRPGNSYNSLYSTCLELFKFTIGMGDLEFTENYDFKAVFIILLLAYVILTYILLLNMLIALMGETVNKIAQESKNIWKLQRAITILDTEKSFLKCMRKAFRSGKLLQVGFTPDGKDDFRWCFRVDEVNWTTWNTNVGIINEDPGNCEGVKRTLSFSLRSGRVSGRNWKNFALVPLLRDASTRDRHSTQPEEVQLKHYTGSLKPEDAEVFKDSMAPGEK

Entries after “also recorded” stand apart in the source; their conditions may differ.

The source of these data is publication PMC4591660 (Toxins, 2015).

`CC(C)[C@@H]1NC(=O)[C@@H]2CSSC[C@@H]3NC(=O)[C@H](CC(=O)O)NC(=O)[C@H](CCC(=O)O)NC(=O)[C@@H](NC(=O)[C@@H](NC(=O)[C@H](C)N)[C@@H](C)O)CSSC[C@H](NC(=O)[C@H](CCCCN)NC(=O)[C@H](C)NC(=O)[C@H](CCCNC(=N)N)NC(=O)[C@H](C)NC(=O)[C@H](CC(N)=O)NC(=O)[C@H](CCC(N)=O)NC(=O)[C@H]([C@@H](C)O)NC(=O)[C@H](C)NC(=O)[C@H](CSSC[C@@H](C(=O)N[C@@H](CCC(=O)O)C(=O)N4CCC[C@H]4C(=O)N[C@@H](CCCCN)C(=O)O)NC1=O)NC(=O)[C@H](Cc1c[nH]cn1)NC(=O)[C@H](CCC(=O)O)NC(=O)[C@@H]1CCCN1C3=O)C(=O)N[C@@H](CC(=O)O)C(=O)N[C@@H](CC(N)=O)C(=O)N[C@@H](CC(=O)O)C(=O)N[C@@H](CCCCN)C(=O)N2` [BmP01]: the “evoked currents in native HEK293T cells, ramp method” value in the test on native HEK293T cells is “not on HEK293T cells without TRPV1; also recorded: did not evoke the currents”. Besides, the “evoked currents on DRG neurons (WT)” value with DRG neurons of WT mice was “evoked currents in WT dorsal root ganglion (DRG) neurons; also recorded: effectively evoked the currents in DRG neurons of WT; also recorded: evoked the currents on DRG sensory neurons of WT mice”. The “evoked currents on DRG neurons (TRPV1 KO)” value in test [1] is given as “had no effect on DRG neurons of TRPV1 KO mice; also recorded: not TRPV1 KO mice; also recorded: did not evoke currents”. Also, on mTRPV1, a half-maximal effect (EC50) was put at 132 ± 49.1 µM.
